Data taken from publication doi:10.1101/2021.01.05.425432v2 (biorxiv, 2021).

Amino acid sequences for entries named in this document (tags omitted).
UniProt P69996, whole entry: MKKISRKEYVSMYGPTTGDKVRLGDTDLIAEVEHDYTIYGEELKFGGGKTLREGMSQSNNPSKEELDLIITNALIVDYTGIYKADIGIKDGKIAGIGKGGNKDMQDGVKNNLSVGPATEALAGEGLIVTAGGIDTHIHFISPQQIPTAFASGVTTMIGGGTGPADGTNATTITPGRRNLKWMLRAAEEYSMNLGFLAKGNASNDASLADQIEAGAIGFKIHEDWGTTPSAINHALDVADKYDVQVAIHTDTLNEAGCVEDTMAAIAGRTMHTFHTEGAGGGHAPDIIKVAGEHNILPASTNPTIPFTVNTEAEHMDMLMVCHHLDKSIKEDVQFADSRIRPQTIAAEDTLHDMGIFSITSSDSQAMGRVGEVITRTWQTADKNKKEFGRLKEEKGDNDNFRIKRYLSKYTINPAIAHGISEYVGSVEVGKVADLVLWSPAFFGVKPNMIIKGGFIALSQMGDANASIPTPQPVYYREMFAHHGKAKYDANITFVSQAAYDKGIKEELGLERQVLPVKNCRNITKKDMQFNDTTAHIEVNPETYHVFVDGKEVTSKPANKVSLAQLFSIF
UniProt P14916, whole entry partner: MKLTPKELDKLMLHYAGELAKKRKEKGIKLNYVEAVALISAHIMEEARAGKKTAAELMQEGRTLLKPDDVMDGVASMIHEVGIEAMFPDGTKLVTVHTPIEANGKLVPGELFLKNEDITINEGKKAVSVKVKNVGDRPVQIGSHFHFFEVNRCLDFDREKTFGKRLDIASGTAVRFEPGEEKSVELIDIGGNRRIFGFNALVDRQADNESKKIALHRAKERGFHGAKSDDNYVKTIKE

What was measured:
H. pylori urease (HPU) = H. pylori urease (HPU) (Helicobacter pylori, UniProt P69996); test: tandem-well NH3 assay, Nessler's reagent, crude extract; type: biochemical; details: 25 mM urea, 100 μM NiCl2, 50 mM phosphate pH 7.4, 37 °C, 30 min preincubation
O. anthropi urease (OAU) = test: as above; type: biochemical, Brucella anthropi; details: 25 mM urea, 100 μM NiCl2, 50 mM phosphate pH 7.4, 37 °C, 30 min preincubation

SMILES | IC50 (H. pylori urease (HPU)) [µM] | IC50 (O. anthropi urease (OAU)) [µM]
O=C1c2ccccc2C(=O)N1c1ccccc1 | > 10 | > 10
O=c1c2ccccc2sn1-c1ccccc1 | > 10 | 4.9
